Pooled drug test results. Numbers come from NIAID ChemDB, via PubChem.

Shared fields: whole-cell or culture tests; agent: Staphylococcus aureus

A number after MIC or MFC names an inhibition level or a share of isolates. Rows are shuffled and stem from different studies.

structure	strain or isolate	read-out	result
CO/N=C1\CN(c2nc3c(cc2F)c(=O)c(C(=O)O)cn3C2CC2)CC1CN	38 isolates (methicillin-resistant)	MIC90	32 µg/mL
CC(=O)NC[C@H]1CN(c2ccc(-c3cnn(C(C)=O)c3)c(F)c2)C(=O)O1	UC6685 (methicillin-resistant)	MIC	2 µg/mL
CCCCCCCCCCCC[N+](C)(C)COCCCC	ATCC33592	MIC	4.46 µM
CCN1CCN(C)c2cc3c(=O)c(C(=O)O)cn(C4CC4)c3cc21	ATCC 5278 (methicillin-resistant)	MIC	>100 µg/mL
CC(=O)NC[C@H]1CN(c2ccc(-c3ccn(CCC#N)n3)c(F)c2)C(=O)O1	UC6685 (methicillin-resistant)	MIC	4 µg/mL
CN(C)CCNc1cc2c(cc1F)c(=O)c(C(=O)O)cn2C1CC1	ATCC 6538P	MIC	>100 µg/mL
CC[C@H]1OC(=O)[C@@](C)(F)C(=O)[C@H](C)[C@@H](O[C@@H]2O[C@H](C)C[C@H](N(C)C)[C@H]2O)[C@@]2(C)C[C@@H](C)C(=NC(C)=O)[C@H](C)[C@@H](OC/C(=N\OCc3cccc(C(N)=O)c3)CO2)[C@]1(C)O	27660 (erythromycin A -resistant)	MIC	0.13 µg/mL
CNC(=O)CC1NC(=O)c2csc(n2)-c2ccc(-c3nc(C(=O)NCCCCCC(=O)O)cs3)nc2-c2csc(n2)-c2csc(n2)C(C(O)c2ccccc2)NC(=O)CNC(=O)c2nc(sc2CO)C(C(C)C)NC(=O)c2nc1sc2C	ATCC 33591 (methicillin-resistant)	MIC	0.25 µg/mL
O=C(CO)N[C@H]1CCN(c2ccc(N3C[C@H](CNc4ccon4)OC3=O)cc2F)C1	078 (oxford)	MIC	0.5 µg/mL
CCCCCCCCCCCC[N+](C)(C)COCC(C)CCC	ATCC33592	MBC	3.3 µM
CC[C@H]1OC(=O)[C@H](C)C(=O)[C@H](C)[C@@H](O[C@@H]2O[C@H](C)C[C@H](N(C)C)[C@H]2O)[C@@]2(C)C[C@@H](C)C(=NC(C)=O)[C@H](C)C(OC/C(=C\C=C\c3ccc(F)cc3)CO2)[C@]1(C)O	27660 (erythromycin-resistant)	MIC	0.5 µg/mL
CC(C)(CN)CNc1cc2c(cc1F)c(=O)c(C(=O)O)cn2C1CC1	ATCC 5278 (methicillin-resistant)	MIC	3.12 µg/mL
CNC(=O)CC1NC(=O)c2csc(n2)-c2ccc(-c3nc(C(=O)NCCC(=O)OC(C)(C)C)cs3)nc2-c2csc(n2)-c2csc(n2)C(C(O)c2ccccc2)NC(=O)CNC(=O)c2nc(sc2CSSc2ncnc3nc[nH]c23)C(C(C)C)NC(=O)c2nc1sc2C	ATCC 33591 (methicillin-resistant)	MIC	0.5 µg/mL
CC(=O)NC[C@H]1CN(c2ccc(-c3nsc(C#N)n3)c(F)c2)C(=O)O1	UC9213 (methicillin-susceptible)	MIC	4 µg/mL
O=C(O)c1cn(C2CC2)c2cc(NCCO)c(F)cc2c1=O	ATCC 6538P	MIC	6.25 µg/mL
O=C1O[C@@H](COc2ccon2)CN1c1ccc(N2CCC(O)CC2)c(F)c1	122 (novobiocin-resistant)	MIC	8 µg/mL
CC[C@H]1OC(=O)[C@@](C)(F)C(=O)[C@H](C)[C@@H](O[C@@H]2O[C@H](C)C[C@H](N(C)C)[C@H]2O)[C@@]2(C)C[C@@H](C)C(=NC(C)=O)[C@H](C)[C@@H](OC/C(=N\OCc3ccc(-c4ncccn4)s3)CO2)[C@]1(C)O	33591 (erythromycin methicillin-resistant)	MIC	16 µg/mL
O=C1O[C@@H](COc2cccnc2)CN1c1ccc(C2=CCOCC2)c(F)c1	004 (methicillin quinolone-resistant)	MIC	2 µg/mL
CC[C@H]1OC(=O)[C@H](C)C(=O)[C@H](C)[C@@H](O[C@@H]2O[C@H](C)C[C@H](N(C)C)[C@H]2O)[C@@]2(C)C[C@@H](C)C(=NC(C)=O)[C@H](C)C(OC/C(=C\C#Cc3ccc(N)nc3)CO2)[C@]1(C)O	29213 (erythromycin-susceptible)	MIC	0.13 µg/mL
CC[C@H]1OC(=O)[C@H](C)C(=O)[C@H](C)[C@@H](O[C@@H]2O[C@H](C)C[C@H](N(C)C)[C@H]2O)[C@](C)(OC)C[C@@H](C)C(=O)[C@H](C)[C@H]2N(CCCCn3cnc(-c4cccnc4)c3)C(=O)O[C@]12C	25 strains	MIC50	0.125 µg/mL
CCN(CC)CCCNc1cc2c(cc1F)c(=O)c(C(=O)O)cn2C1CC1	ATCC 6538P	MIC	50 µg/mL
CNC(=O)CC1NC(=O)c2csc(n2)-c2ccc(-c3nc(C(=O)NCCCCCC(=O)O)cs3)nc2-c2csc(n2)-c2csc(n2)C(C(O)c2ccccc2)NC(=O)CNC(=O)c2nc(sc2CSc2ccc(C(=O)O)cn2)C(C(C)C)NC(=O)c2nc1sc2C	ATCC 33591 (methicillin-resistant)	MIC	0.5 µg/mL
C=CCn1cc(-c2ccc(N3C[C@H](CNC(C)=O)OC3=O)cc2F)cn1	UC6685 (methicillin-resistant)	MIC	2 µg/mL
CC[C@H]1OC(=O)[C@H](C)C(=O)[C@H](C)[C@@H](O[C@@H]2O[C@H](C)C[C@H](N(C)C)[C@H]2O)[C@@]2(C)C[C@@H](C)C(=NC(C)=O)[C@H](C)C(OC/C(=C\C#Cc3ccccc3)CO2)[C@]1(C)O	27660 (erythromycin-resistant)	MIC	0.25 µg/mL
CC[C@H]1OC(=O)[C@@](C)(F)C(=O)[C@H](C)[C@@H](O[C@@H]2O[C@H](C)C[C@H](N(C)C)[C@H]2O)[C@@]2(C)C[C@@H](C)C(=N)[C@H](C)[C@@H](OC/C(=N\OCc3ccc(-c4nccs4)nc3)CO2)[C@]1(C)O	33591 (erythromycin methicillin-resistant)	MIC	>64 µg/mL
O=C(C(O)Cn1cccn1)N1CC=C(c2c(F)cc(N3C[C@H](COc4ccon4)OC3=O)cc2F)CC1	078 (oxford)	MIC	0.5 µg/mL
CC(=O)NC[C@H]1CN(c2ccc(-c3ccn(C(C)=O)n3)c(F)c2)C(=O)O1	UC6685 (methicillin-resistant)	MIC	4 µg/mL
CCCCCCCCCCCCSC[N+](C)(C)CCCCCCCCCCCC	ATCC 6538	MIC	5.38 µM
CC[C@H]1OC(=O)[C@H](C)C(=O)[C@H](C)[C@@H](O[C@@H]2O[C@H](C)C[C@H](N(C)C)[C@H]2O)[C@@]2(C)C[C@@H](C)C(=NC(C)=O)[C@H](C)C(OC/C(=C\C=C\c3ccc([N+](=O)[O-])cc3)CO2)[C@]1(C)O	33591 (erythromycin methicillin-resistant)	MIC	64 µg/mL
CC[C@H]1OC(=O)[C@@](C)(F)C(=O)[C@H](C)[C@@H](O[C@@H]2O[C@H](C)C[C@H](N(C)C)[C@H]2O)[C@@]2(C)C[C@@H](C)C(=O)[C@H](C)[C@@H](OC/C(=N\OCc3ccc(-n4cccn4)nc3)CO2)[C@]1(C)O	29213 (erythromycin A-susceptible)	MIC	0.13 µg/mL
C=C1COC2[C@@H](C)C(=NC(C)=O)[C@H](C)C[C@@](C)(OC1)[C@H](O[C@@H]1O[C@H](C)C[C@H](N(C)C)[C@H]1O)[C@@H](C)C(=O)[C@@H](C)C(=O)O[C@H](CC)[C@@]2(C)O	33591 (erythromycin methicillin-resistant)	MIC	>64 µg/mL
COCCNc1cc2c(cc1F)c(=O)c(C(=O)O)cn2C1CC1	ATCC 6538P	MIC	6.25 µg/mL
CC[C@H]1OC(=O)[C@H](C)C(=O)[C@H](C)[C@@H](O[C@@H]2O[C@H](C)C[C@H](N(C)C)[C@H]2O)[C@@]2(C)C[C@@H](C)C(=NC(=O)CN)[C@H](C)C(OC/C(=C\C=C\c3ccccc3)CO2)[C@]1(C)O	27660 (erythromycin-resistant)	MIC	1 µg/mL
COC(=O)n1ccc(-c2ccc(N3C[C@H](CNC(C)=O)OC3=O)cc2F)n1	UC6685 (methicillin-resistant)	MIC	4 µg/mL
O=C1O[C@@H](COc2ccon2)CN1c1ccc(-n2ccnc2)c(F)c1	078 (oxford)	MIC	1 µg/mL
CCCCCCCCCCCC[N+](C)(C)COCC(C)C	ATCC33592	MIC	14.9 µM
O=C(CO)N[C@H]1CCN(c2ccc(N3C[C@H](COc4ccon4)OC3=O)cc2F)C1	122 (novobiocin-resistant)	MIC	4 µg/mL
COCC(C)Nc1cc2c(cc1F)c(=O)c(C(=O)O)cn2C1CC1	ATCC 6538P	MIC	>100 µg/mL
CC(=O)NC[C@H]1CN(c2ccc(-c3noc(C(F)(F)F)n3)c(F)c2)C(=O)O1	UC9213 (methicillin-susceptible)	MIC	16 µg/mL
CC[C@H]1OC(=O)[C@@](C)(F)C(=O)[C@H](C)[C@@H](O[C@@H]2O[C@H](C)C[C@H](N(C)C)[C@H]2O)[C@@]2(C)C[C@@H](C)C(=NC(C)=O)[C@H](C)[C@@H](OC/C(=N\OCc3ccc(-n4cccn4)nc3)CO2)[C@]1(C)O	25 strains	MIC90	32 µg/mL
CC[C@H]1OC(=O)[C@@](C)(F)C(=O)[C@H](C)[C@@H](O[C@@H]2O[C@H](C)C[C@H](N(C)C)[C@H]2O)[C@@]2(C)C[C@@H](C)C(=NC(C)=O)[C@H](C)[C@@H](OC/C(=N\OCc3ccc(C(N)=O)s3)CO2)[C@]1(C)O	33591 (erythromycin methicillin-resistant)	MIC	>64 µg/mL
CC[C@H]1OC(=O)[C@H](C)C(=O)[C@H](C)[C@@H](O[C@@H]2O[C@H](C)C[C@H](N(C)C)[C@H]2O)[C@@]2(C)C[C@@H](C)C(=NC(C)=O)[C@H](C)C(OC/C(=C\C=C\c3cccnc3)CO2)[C@]1(C)O	33591 (erythromycin methicillin-resistant)	MIC	>64 µg/mL
O=C(C(O)Cn1cccc1)N1CC=C(c2ccc(N3C[C@H](COc4ccon4)OC3=O)cc2F)CC1	122 (novobiocin-resistant)	MIC	2 µg/mL
CCCCCCCCCCCC[N+](C)(C)CSCCC	ATCC 6538	MBC	15 µM
CNC(=O)CC1NC(=O)c2csc(n2)-c2ccc(-c3nc(C(=O)NCCC(=O)OC(C)(C)C)cs3)nc2-c2csc(n2)-c2csc(n2)C(C(O)c2ccccc2)NC(=O)CNC(=O)c2nc(sc2CSSc2nc3ccccc3[nH]2)C(C(C)C)NC(=O)c2nc1sc2C	ATCC 33591 (methicillin-resistant)	MIC	0.5 µg/mL
CC(=O)NC[C@H]1CN(c2ccc(-c3ccsc3)c(F)c2)C(=O)O1	UC9213 (methicillin-susceptible)	MIC	0.5 µg/mL
O=C1O[C@@H](COc2ccccn2)CN1c1ccc(C2=CCOCC2)c(F)c1	004 (methicillin quinolone-resistant)	MIC	0.5 µg/mL
CC[C@H]1OC(=O)[C@H](C)C(=O)[C@H](C)[C@@H](O[C@@H]2O[C@H](C)C[C@H](N(C)C)[C@H]2O)[C@@]2(C)C[C@@H](C)C(=NC(C)=O)[C@H](C)[C@@H](OC/C(=N/OCc3ccc(-c4cccc(N)n4)s3)CO2)[C@]1(C)O	27660 (erythromycin A -resistant)	MIC	0.5 µg/mL
Cc1ccnc(OC[C@H]2CN(c3ccc(C4=CCOCC4)c(F)c3)C(=O)O2)c1	004 (methicillin quinolone-resistant)	MIC	1 µg/mL
CC[C@H]1OC(=O)[C@H](C)C(=O)[C@H](C)[C@@H](O[C@@H]2O[C@H](C)C[C@H](N(C)C)[C@H]2O)[C@@]2(C)C[C@@H](C)C(=NC(C)=O)[C@H](C)C(OC/C(=C\C#Cc3cccnc3)CO2)[C@]1(C)O	27660 (erythromycin-resistant)	MIC	0.25 µg/mL
CNC(=O)CC1NC(=O)c2csc(n2)-c2ccc(-c3nc(COC(=O)N(C)CCCC(C)=O)cs3)nc2-c2csc(n2)-c2csc(n2)C(C(O)c2ccccc2)NC(=O)CNC(=O)c2nc(sc2CSc2nnc(C)s2)C(C(C)C)NC(=O)c2nc1sc2C	ATCC 33591 (methicillin-resistant)	MIC	0.5 µg/mL

Again, the opening 5 rows:

structure,strain or isolate,read-out,result
CO/N=C1\CN(c2nc3c(cc2F)c(=O)c(C(=O)O)cn3C2CC2)CC1CN,38 isolates (methicillin-resistant),MIC90,32 µg/mL
CC(=O)NC[C@H]1CN(c2ccc(-c3cnn(C(C)=O)c3)c(F)c2)C(=O)O1,UC6685 (methicillin-resistant),MIC,2 µg/mL
CCCCCCCCCCCC[N+](C)(C)COCCCC,ATCC33592,MIC,4.46 µM
CCN1CCN(C)c2cc3c(=O)c(C(=O)O)cn(C4CC4)c3cc21,ATCC 5278 (methicillin-resistant),MIC,>100 µg/mL
CC(=O)NC[C@H]1CN(c2ccc(-c3ccn(CCC#N)n3)c(F)c2)C(=O)O1,UC6685 (methicillin-resistant),MIC,4 µg/mL